Record: PubChem BioAssay AID1259414 (Drosophila RNAi Screening Center, 2018)

Assay: 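Genome-wide screen for host control of endosymbiont load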 (primary screen)
Cells: Drosophila JW18 cells infected with Wolbachia
Reagent: long dsRNA against Drosophila genes, 0.25 µg dsRNA per well of a 384-well plate
Timing: 5 days
Challenge: cells persistently infected with Wolbachia before knock-down; no added drug
Read-out: 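Imaged fluorescence in situ signal for Wolbachia 23S rRNA per DAPI-counted host cell, given as a robust z-score within each plate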
Direction: Wolbachia per cell robust z: higher = more Wolbachia per host cell than the plate typical
Active means: 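Active if absolute robust z reaches 1.5 in two or more of three replicates, leaving out multi- or no-target dsRNAs, genes unexpressed in JW18 and A1 wells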
The screen tested about 24,000 reagents; below is a random part of those that have a named target and a result. Of all reagents, about 1,210 (5%) were called active. 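Inactive calls also include excluded dsRNAs with several or no targets, genes unexpressed in JW18, and well A1, regardless of score.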 Entries without a mark were called inactive. Reagents against one gene are numbered here. Names joined by + are all predicted targets of the reagent.

Silencing of CG7582 came out at: Wolbachia per cell robust z, rep 1 = -0.338; Wolbachia per cell robust z, rep 2 = -0.982; Wolbachia per cell robust z, rep 3 = -2.46.
After knock-down of sloth1 + sloth2 the results were Wolbachia per cell robust z, rep 1 = -3.28; Wolbachia per cell robust z, rep 2 = -1.43; Wolbachia per cell robust z, rep 3 = -1.19.
After knock-down of tipE #1, the record shows Wolbachia per cell robust z, rep 1 = -0.578; Wolbachia per cell robust z, rep 2 = 0.232; Wolbachia per cell robust z, rep 3 = 0.536.
Knock-down of tipE #2 resulted in: Wolbachia per cell robust z, rep 1 = 0.603; Wolbachia per cell robust z, rep 2 = -1.05; Wolbachia per cell robust z, rep 3 = 0.818.
After knock-down of Gp150 #1, the record shows Wolbachia per cell robust z, rep 1 = 0.654; Wolbachia per cell robust z, rep 2 = 0.0832; Wolbachia per cell robust z, rep 3 = 0.823.
For Gp150 #2 the deposit lists Wolbachia per cell robust z, rep 1 = 0.419; Wolbachia per cell robust z, rep 2 = 0.583; Wolbachia per cell robust z, rep 3 = 1.24.
swi2 gave Wolbachia per cell robust z, rep 1 = -0.341; Wolbachia per cell robust z, rep 2 = 0.485; Wolbachia per cell robust z, rep 3 = 0.138.
Knock-down of Scox #1 resulted in: Wolbachia per cell robust z, rep 1 = 1.13; Wolbachia per cell robust z, rep 2 = -0.942; Wolbachia per cell robust z, rep 3 = 0.218.
With knock-down of Scox #2, the screen gave Wolbachia per cell robust z, rep 1 = 0.6; Wolbachia per cell robust z, rep 2 = 0.744; Wolbachia per cell robust z, rep 3 = 1.03.
GatA scored Wolbachia per cell robust z, rep 1 = 0.167; Wolbachia per cell robust z, rep 2 = -0.0136; Wolbachia per cell robust z, rep 3 = 1.06.
Against PHDP, the values are Wolbachia per cell robust z, rep 1 = -1.66; Wolbachia per cell robust z, rep 2 = -0.269; Wolbachia per cell robust z, rep 3 = -0.311.
After knock-down of CG42470, the record shows Wolbachia per cell robust z, rep 1 = 1.22; Wolbachia per cell robust z, rep 2 = -0.371; Wolbachia per cell robust z, rep 3 = -0.695.
For CG12426, the values are Wolbachia per cell robust z, rep 1 = -4.94; Wolbachia per cell robust z, rep 2 = -0.789; Wolbachia per cell robust z, rep 3 = -0.66.
CG6345 scored Wolbachia per cell robust z, rep 1 = 0.909; Wolbachia per cell robust z, rep 2 = -0.637; Wolbachia per cell robust z, rep 3 = -0.116.
With knock-down of CG3224 the results were Wolbachia per cell robust z, rep 1 = 0.871; Wolbachia per cell robust z, rep 2 = 0.485; Wolbachia per cell robust z, rep 3 = 0.588.
Atx2 #1 gave Wolbachia per cell robust z, rep 1 = -0.0288; Wolbachia per cell robust z, rep 2 = -0.0172; Wolbachia per cell robust z, rep 3 = -4.
Atx2 #2 showed Wolbachia per cell robust z, rep 1 = 0.305; Wolbachia per cell robust z, rep 2 = 0.302; Wolbachia per cell robust z, rep 3 = 1.04.
CG3548 #1 gave Wolbachia per cell robust z, rep 1 = 0.678; Wolbachia per cell robust z, rep 2 = -0.37; Wolbachia per cell robust z, rep 3 = -0.596.
Against CG3548 #2 the deposit lists Wolbachia per cell robust z, rep 1 = -0.911; Wolbachia per cell robust z, rep 2 = -1.12; Wolbachia per cell robust z, rep 3 = -0.337.
Depletion of FANCI came out at: Wolbachia per cell robust z, rep 1 = -1.77 (active); Wolbachia per cell robust z, rep 2 = -4.73; Wolbachia per cell robust z, rep 3 = -0.688.
With knock-down of RpL38, the screen gave Wolbachia per cell robust z, rep 1 = 2.22; Wolbachia per cell robust z, rep 2 = 1.11; Wolbachia per cell robust z, rep 3 = 0.962.
Silencing of CG43349 + CG5011 came out at: Wolbachia per cell robust z, rep 1 = 0.112; Wolbachia per cell robust z, rep 2 = 0.322; Wolbachia per cell robust z, rep 3 = -0.681.
With knock-down of CNMa, the screen gave Wolbachia per cell robust z, rep 1 = 0.439; Wolbachia per cell robust z, rep 2 = -0.634; Wolbachia per cell robust z, rep 3 = -1.03.
Against CG1571, the values are Wolbachia per cell robust z, rep 1 = 0.752; Wolbachia per cell robust z, rep 2 = 0.775; Wolbachia per cell robust z, rep 3 = -1.57.
CG33257 gave Wolbachia per cell robust z, rep 1 = -0.611; Wolbachia per cell robust z, rep 2 = 1.21; Wolbachia per cell robust z, rep 3 = -0.262.
Silencing of Mccc2 resulted in: Wolbachia per cell robust z, rep 1 = 0.807; Wolbachia per cell robust z, rep 2 = 0.223; Wolbachia per cell robust z, rep 3 = 0.141.
With knock-down of tal-2A + tal-AA + tal-3A + 1 more, the record shows Wolbachia per cell robust z, rep 1 = 0.999; Wolbachia per cell robust z, rep 2 = 0.785; Wolbachia per cell robust z, rep 3 = 0.706.
Against CG31097, the entry reads Wolbachia per cell robust z, rep 1 = -4.62 (active); Wolbachia per cell robust z, rep 2 = 0.933; Wolbachia per cell robust z, rep 3 = -3.26.
CG30105 #1 showed Wolbachia per cell robust z, rep 1 = 0.0316; Wolbachia per cell robust z, rep 2 = 0.254; Wolbachia per cell robust z, rep 3 = 0.0589.
For CG30105 #2 the deposit lists Wolbachia per cell robust z, rep 1 = 0.844; Wolbachia per cell robust z, rep 2 = 0.379; Wolbachia per cell robust z, rep 3 = 0.661.
